Data from PMC6669600 (Viruses, 2019).
Like-named read-outs stand apart in the source and are kept apart here.

How the values were obtained:
[1] = test system: HIV-1HXB2 Env-mediated cell-cell fusion; format: cell-based; conditions: TZM-bl target, HL2/3 effector, 6 h coculture at 37 C, luciferase, triplicate, repeated three times, mean ± SD, read-out: IC50, inhibition of HIV-1HXB2 Env-mediated cell-cell fusion
[2] = target: T1, N36 (gp41 NHR-derived target mimic peptide) (Human immunodeficiency virus type 1 group M subtype B, UniProt P04578); assay: CD spectroscopy of inhibitor complexed with N36; format: binding, HIV-1; conditions: thermal denaturation of complex at 222 nm, 20-98 C, 2 C/min, each peptide 10 μM in PBS; repeated two times, representative data
[3] = target: T1, N36 (gp41 NHR-derived target mimic peptide); assay: Isothermal titration calorimetry with N36; format: binding, HIV-1; conditions: ITC, 1 mM N36 injected into 80 μM CHR peptide, 25 C; for N (reaction stoichiometric): repeated two times, representative data
HIV-1NL4-3 pseudovirus = format: cell-based; conditions: TZM-bl cells, 100 TCID50, peptide-virus 1 h RT, 48 h at 37 C, luciferase, triplicate, repeated three times, mean ± SD, read-out: IC50, inhibition of HIV-1NL4-3 pseudovirus entry

## CC[C@H](C)[C@H](NC(=O)[C@H](CC(C)C)NC(=O)[C@H](CO)NC(=O)[C@H](Cc1c[nH]cn1)NC(=O)[C@@H](NC(=O)[C@H](CC(C)C)NC(=O)[C@H](CO)NC(=O)[C@@H](NC(=O)[C@H](Cc1ccc(O)cc1)NC(=O)[C@H](CC(N)=O)NC(=O)[C@H](CC(N)=O)NC(=O)[C@@H](NC(=O)[C@H](CCC(=O)O)NC(=O)[C@H](CCCNC(=N)N)NC(=O)[C@H](CC(=O)O)NC(=O)[C@H](Cc1c[nH]c2ccccc12)NC(=O)[C@H](CCC(=O)O)NC(=O)[C@H](CCSC)NC(=O)[C@H](Cc1c[nH]c2ccccc12)NC(C)=O)[C@@H](C)CC)[C@@H](C)O)[C@@H](C)CC)C(=O)N[C@@H](CCC(=O)O)C(=O)N[C@@H](CCC(=O)O)C(=O)N[C@@H](CO)C(=O)N[C@@H](CCC(N)=O)C(=O)N[C@@H](CC(N)=O)C(=O)N[C@@H](CCC(N)=O)C(=O)N[C@@H](CCC(N)=O)C(=O)N[C@@H](CCC(=O)O)C(=O)N[C@@H](CCCCN)C(=O)N[C@@H](C)C(=O)N[C@@H](CCC(=O)O)C(=O)N[C@@H](CCC(N)=O)C(=O)N[C@@H](CCC(=O)O)C(=O)N[C@@H](CC(C)C)C(=O)N[C@@H](CC(C)C)C(N)=O [C34N145A]
[1]; SD
  IC50: 2.2 ± 0.5 nM
[2]
  CD data (with N36) Tm (°C): 51 °C
[3]
  △H (enthalpy): -13.1 kcal/mol
  △S (entropy): −14.8 cal/mol/deg
  N (reaction stoichiometric): 1.1
HIV-1NL4-3 pseudovirus
  IC50: 4.8 ± 0.7 nM

## CC[C@H](C)[C@H](NC(=O)[C@H](CC(C)C)NC(=O)[C@H](CCC(=O)O)NC(=O)[C@H](CCC(=O)O)NC(=O)[C@@H](NC(=O)[C@H](CCCCN)NC(=O)[C@H](CCCCN)NC(=O)[C@@H](NC(=O)[C@H](Cc1ccc(O)cc1)NC(=O)[C@H](CCC(=O)O)NC(=O)[C@H](CCC(=O)O)NC(=O)[C@@H](NC(=O)[C@H](CCCCN)NC(=O)[C@H](CCCCN)NC(=O)[C@H](CC(=O)O)NC(=O)[C@H](Cc1c[nH]c2ccccc12)NC(=O)[C@H](CCC(=O)O)NC(=O)[C@H](CCC(=O)O)NC(=O)[C@H](Cc1c[nH]c2ccccc12)NC(C)=O)[C@@H](C)CC)[C@@H](C)O)[C@@H](C)CC)C(=O)N[C@@H](CCCCN)C(=O)N[C@@H](CCCCN)C(=O)N[C@@H](CO)C(=O)N[C@@H](CCC(=O)O)C(=O)N[C@@H](CCC(=O)O)C(=O)N[C@@H](CCC(N)=O)C(=O)N[C@@H](CCC(N)=O)C(=O)N[C@@H](CCCCN)C(=O)N[C@@H](CCCCN)C(N)=O [SC28EK]
[1]
  IC50: 13 nM
[2]
  CD data (with N36) Tm (°C): 57.6 °C
[3]
  △H (enthalpy): -9.0 kcal/mol
  △S (entropy): −3.66 cal/mol/deg
  N (reaction stoichiometric): 1.3

## CC[C@H](C)[C@H](NC(=O)[C@H](CC(C)C)NC(=O)[C@H](CCC(=O)O)NC(=O)[C@H](CCC(=O)O)NC(=O)[C@@H](NC(=O)[C@H](CCCCN)NC(=O)[C@H](CCCCN)NC(=O)[C@@H](NC(=O)[C@H](Cc1ccc(O)cc1)NC(=O)[C@H](CCC(=O)O)NC(=O)[C@H](CCC(=O)O)NC(=O)[C@@H](NC(=O)[C@H](CCCCN)NC(=O)[C@H](CCCCN)NC(=O)[C@H](CC(=O)O)NC(=O)[C@H](Cc1c[nH]c2ccccc12)NC(=O)[C@H](CCC(=O)O)NC(=O)[C@H](CCC(=O)O)NC(=O)[C@H](Cc1c[nH]c2ccccc12)NC(C)=O)[C@@H](C)CC)[C@@H](C)O)[C@@H](C)CC)C(=O)N[C@@H](CCCCN)C(=O)N[C@@H](CCCCN)C(=O)N[C@@H](CO)C(=O)N[C@@H](CCC(=O)O)C(=O)N[C@@H](CCC(=O)O)C(=O)N[C@@H](CCC(N)=O)C(=O)N[C@@H](CCC(N)=O)C(=O)N[C@@H](CCCCN)C(=O)N[C@@H](CCCCN)C(=O)N[C@@H](CC(N)=O)C(N)=O [SC29EK, reference compound]
[1]
  IC50: 1 nM
[2]
  CD data (with N36) Tm (°C): 63.3 °C
[3]
  △H (enthalpy): -15.8 kcal/mol
  △S (entropy): −23.6 cal/mol/deg
  N (reaction stoichiometric): 1.1
